Test results from PubChem BioAssay AID2315 (National Center for Advancing Translational Sciences (NCATS), 2010).
This is a selection; strong and weak results do not stand in their true shares. The source made the active and inactive calls. No stated cut-off is given here; in the data, active means inhibition mostly above about 28% (no sharp cut-off); inactive means mostly below about 43%.

Assay: A qHTS for Small Molecule Inhibitors of Shiga Toxin; on inhibition: 0% is about no effect
Conditions: Vero cells, Shiga toxin protein synthesis inhibition reporter; at 38.7 µM, hits give high values
For `CCOC(=O)c1ccc(NP(C)(=O)Oc2ccc(F)cc2)cc1` (centres undefined), the inhibition was inactive: 10.1%. In the case of `COc1ccc(OP(C)(=O)Nc2ccc(SC(F)(F)F)cc2)cc1` (centres undefined), the inhibition is reported as inactive: -4.66%. With `CCNC(=S)/N=C(\N)N[N+](=O)[O-]` the inhibition was inactive: -11.6%. In the case of `CP(=O)(Nc1ccccc1)Oc1ccc(F)cc1` (centres undefined), the inhibition is reported as inactive: -2.12%. With `O=c1c2cc([N+](=O)[O-])ccc2[nH]c2c([N+](=O)[O-])cc([N+](=O)[O-])cc12` the inhibition was inactive: -3.59%. In the case of `CCCCCOc1ccc(NP(C)(=O)Oc2ccc(Cl)cc2Cl)cc1` (centres undefined), the inhibition is reported as inactive: 3.33%. In the case of `CCN(CC)CCCOC(=O)C(O)(c1ccccc1)C1CCCCC1` (centres undefined), the inhibition is reported as inactive: -5.1%. In the case of `CP(=O)(Nc1ccccc1F)Oc1ccccc1` (centres undefined), the inhibition is reported as inactive: -4.68%. For `CC(C)c1ccc(OP(C)(=O)Nc2ccc(SC(F)(F)F)cc2)cc1` (centres undefined), the inhibition was inactive: -7.98%. With `O=C(OCCN1CCN(CCOCc2ccccc2)CC1)C(O)(c1ccccc1)c1ccccc1` the inhibition was inactive: -11.2%. For `CCOP(C)(=S)SCC(=O)NC(C)(CC)C(=O)O` (centres undefined), the inhibition was inactive: 8.84%. In the case of `c1nnnn1CCn1cnnn1`, the inhibition is reported as inactive: 25.2%. In the case of `CP(=O)(Nc1ccc(SC(F)(F)F)cc1)Oc1ccc(F)cc1` (centres undefined), the inhibition is reported as inactive: -12.9%. With `Cc1ccccc1NP(C)(=O)Nc1ccccc1C` the inhibition was inactive: -12.9%. For `CP(=O)(Nc1ccc2c(c1)OCCO2)Oc1ccccc1` (centres undefined), the inhibition was inactive: 44.8%. With `CN(C)CCOC(=O)C(O)(c1ccccc1)C1CCCCC1` (centres undefined) the inhibition was inactive: -1.52%. For `COc1ccc(NP(C)(=O)Oc2ccccc2OC)cc1` (centres undefined), the inhibition was inactive: -19.4%. With `COc1ccc(OP(C)(=O)Nc2cccc(Br)c2)cc1` (centres undefined) the inhibition was inactive: -14.4%. In the case of `C(Cc1nn[nH]n1)Cc1nn[nH]n1`, the inhibition is reported as inactive: 12.2%. In the case of `O=[N+]([O-])c1ccc(OP2(=O)COCCO2)cc1` (centres undefined), the inhibition is reported as inactive: -6.05%. In the case of `O=[N+]([O-])c1ncn(CCn2cnc([N+](=O)[O-])n2)n1`, the inhibition is reported as inactive: -2.63%. For `Cc1cc(-c2cccc3ccccc23)c(C)cn1.O=[N+]([O-])c1cc([N+](=O)[O-])c(O)c([N+](=O)[O-])c1`, the inhibition was inactive: 24.6%. With `CCOC(=O)c1ccc(NP(C)(=O)Oc2ccc(Cl)cc2)cc1` (centres undefined) the inhibition was inactive: -11.2%. In the case of `CP(=O)(OC12CC3CC(CC(C3)C1)C2)OC12CC3CC(CC(C3)C1)C2`, the inhibition is reported as inactive: 29.7%. With `O=[N+]([O-])c1ncn(CCn2ncnc2[N+](=O)[O-])n1` the inhibition was inactive: -3.02%. With `COc1ccccc1OP(C)(=O)Nc1c(C)n(C)n(-c2ccccc2)c1=O` (centres undefined) the inhibition was inactive: 2.01%. With `O=C(OCCCN1CCCC1)C(O)(c1ccccc1)C1CCCCC1` (centres undefined) the inhibition was inactive: -13.3%. For `CP(=O)(Oc1ccccc1)N1CCOC1=O` (centres undefined), the inhibition was inactive: 26.2%. With `O=[N+]([O-])c1cc([N+](=O)[O-])c(CCNc2ccccc2)c([N+](=O)[O-])c1` the inhibition was inactive: 13.6%. With `CCc1nc2c(n1)c1c(non1O)c1c2no[n+]1[O-]` the inhibition was inactive: -12.5%. For `CCc1ccc(OP(C)(=O)Nc2cccnc2)cc1` (centres undefined), the inhibition was inactive: -18.4%. With `CCN(CC)CC(O)COC(=O)C(O)(c1ccccc1)C1CCCCC1` (centres undefined) the inhibition was inactive: -1.45%. In the case of `COc1ccc(OP(C)(=O)Nc2ccc(Br)cc2)cc1` (centres undefined), the inhibition is reported as inactive: 1.35%. For `CC(C)=N/N=C(\N)N[N+](=O)[O-]`, the inhibition was inactive: -8.27%. With `CN(C)C(=O)c1c([N+](=O)[O-])cc([N+](=O)[O-])cc1[N+](=O)[O-]` the inhibition was inactive: 17.7%. In the case of `CC(C)(C)c1ccc(OP(C)(=O)O)cc1`, the inhibition is reported as inactive: -11.2%. With `COc1ccccc1OP(C)(=O)Nc1ccccc1Br` (centres undefined) the inhibition was inactive: -16.5%. In the case of `C[N+]1=C2C=CC=CC=C2SC12C([N+](=O)[O-])=CC([N+](=O)[O-])=C[C-]2[N+](=O)[O-]` (centres undefined), the inhibition is reported as active: 130%. In the case of `CP(=O)(Nc1ccc(Cl)cc1)Oc1ccc(F)cc1` (centres undefined), the inhibition is reported as inactive: 29.3%. For `COc1ccc(OP(C)(=O)Nc2ccccn2)cc1` (centres undefined), the inhibition was inactive: -7.28%. With `CN(C)CCOC(=O)C(O)(c1ccccc1)C1CCCC1` (centres undefined) the inhibition was inactive: -24.2%. In the case of `COc1ccccc1OP(C)(=O)Nc1ccc(Br)cc1` (centres undefined), the inhibition is reported as inactive: 19.9%. In the case of `CP(=O)(Nc1ccccn1)Oc1ccccc1` (centres undefined), the inhibition is reported as inactive: -2.69%. With `COc1ccccc1OP(C)(=O)Nc1ccc(C)cc1C` (centres undefined) the inhibition was inactive: -13.9%. For `CCc1ccc(OP(C)(=O)O)cc1`, the inhibition was inactive: 36.6%. In the case of `O=[N+]([O-])c1cc([N+](=O)[O-])c(Nc2ccccn2)c([N+](=O)[O-])c1`, the inhibition is reported as inactive: -3.7%. In the case of `Nc1cc(N)c2nonc2c1[N+](=O)[O-]`, the inhibition is reported as inactive: 17.6%. With `Cc1c(NP(C)(=O)Oc2ccc(C(C)C)cc2)c(=O)n(-c2ccccc2)n1C` (centres undefined) the inhibition was inactive: -8.2%. With `COc1ccccc1OP(C)(=O)Nc1ccc(C)c(C)c1` (centres undefined) the inhibition was inactive: -12.5%. In the case of `COc1ccc(OP(C)(=O)Nc2ccccc2Br)cc1` (centres undefined), the inhibition is reported as inactive: -8.08%. For `Cc1cc(C)cc(OP(C)(=O)Nc2cccc(C(F)(F)F)c2)c1` (centres undefined), the inhibition was inactive: -1.73%. With `CCN(N=Nc1nonc1N)c1nonc1N` the inhibition was inactive: -10.3%. In the case of `CP(=O)(OCCOc1ccccc1)OCCOc1ccccc1`, the inhibition is reported as inactive: -7.3%. In the case of `CP(=O)(Nc1ccc(Cl)cc1Cl)Oc1ccccc1` (centres undefined), the inhibition is reported as inactive: -6.65%. In the case of `Cc1nc2ccc3ccccc3c2o1.O=[N+]([O-])c1cc([N+](=O)[O-])c(O)c([N+](=O)[O-])c1`, the inhibition is reported as “active”. In the case of `O=[N+]([O-])c1cc([N+](=O)[O-])c(CCN2CCOCC2)c([N+](=O)[O-])c1`, the inhibition is reported as inactive: -2.28%. In the case of `O=[N+]([O-])c1ccc2c(c1)C=Nc1ccccc1O2`, the inhibition is reported as inactive: -13.2%. With `CC(C)(C)c1ccc(OP(C)(=O)Nc2ccc(SC(F)(F)F)cc2)cc1` (centres undefined) the inhibition was inactive: -6.48%. For `O=C(O)C(O)(c1ccccc1)c1ccccc1`, the inhibition was inactive: 22.7%. In the case of `Cc1cccc(C)c1OP(C)(N)=O` (centres undefined), the inhibition is reported as inactive: -17%. For `O=C(O)C1(O)c2ccccc2-c2ccccc21`, the inhibition was inactive: 4.9%. For `Cc1cc(C)cc(OP(C)(N)=O)c1` (centres undefined), the inhibition was inactive: -12.4%. For `COc1ccccc1OP(C)(=O)Nc1cc(Cl)ccc1C` (centres undefined), the inhibition was inactive: 4.5%. For `COc1ccc(OP(C)(=O)Nc2cccc(F)c2)cc1` (centres undefined), the inhibition was inactive: -11.1%.
